# This is a selection: effects in other tests are not listed, and their absence says nothing.
# System: S. aureus
# Experiment: Microbicidal plate assay, pEPO with amine additives, aged 0 or 5 minutes with H2O2 (Example 7)
# Assay type: cell-based, Staphylococcus aureus
# Conditions: Plate 4 versus Plate 1, aged 0 min; 3 mM additive
compound,measurement,value
OCCN(CCO)CCO,effect of additive on pEPO bioactivity,inhibitory
